Results from article PMC9820238, “Effect of B-NIPOx in Experimental Trypanosoma cruzi Infection in Mice” (International Journal of Molecular Sciences, 2022).

How the values were obtained:
Assay in all cases: NADH oxidation at […] nm
Format in all cases: biochemical, Trypanosoma cruzi
Settings in all cases: 5 mM α-ketoisocaproate, 0.12 mM NADH, PBS pH 7.4, 37 °C
[1] = tested on: α-hydroxy acid dehydrogenase isozyme II (HADH-II), Compostela strain
[2] = tested on: α-hydroxy acid dehydrogenase isozyme II (HADH-II), NINOA strain
[3] = tested on: α-hydroxy acid dehydrogenase isozyme II (HADH-II), INC-5 strain
[4] = tested on: α-hydroxy acid dehydrogenase isozyme II (HADH-II), Miguz strain

CC(C)NC(=O)C(=O)O [NIPOx]
< 20%: % residual activity at 0.50 mM [1] | % residual activity at 0.50 mM [2] | % residual activity at 0.50 mM [3] | % residual activity at 0.50 mM [4]

CCCNC(=O)C(=O)O [NPOx]
< 20%: % residual activity at 1.50 mM [1] | % residual activity at 1.25 mM [2] | % residual activity at 1.25 mM [3] | % residual activity at 1.50 mM [4]
